A mixed list of measured activities; the numbers were collected in NIAID ChemDB.

Shared fields: tests in culture; organism: Herpes simplex virus 1; read-out: EC50

An empty or dashed field is not shown. Conditions beyond the fields shown may differ between rows. ECn is the concentration giving n% inhibition of infection, replication or growth.

compound,strain or isolate,cells,read by,result
O=C(O)Cc1ccc(O)c(O)c1,KOS,E6SM,cytopathic effect,15 µg/mL
Cc1cccc2c1OP(=O)(OC[C@H]1O[C@@H](n3cc(/C=C/Br)c(=O)[nH]c3=O)C[C@@H]1OC(=O)[C@H](C)N)OC2,KUPKA (TK+),VERO,plaque count,0.34 µg/mL
CC(=O)N[C@@H](C=O)[C@@H](O)[C@H](O)[C@H](O)C(=O)O,KOS,HeLa,cytopathic effect,>200 µg/mL
CC(C)(C)C(=O)OCOC(=O)CN(CC(=O)OCOC(=O)C(C)(C)C)P(=O)(OC[C@H]1O[C@@H](n2ccc3c(N)ncnc32)C[C@@H]1O)Oc1ccccc1,KOS,HEL,,>100 µM
O=C(O)P(=O)(O)O,90155,SIRC,plaque count,<100 µM
O=c1[nH]c(=O)n(C2CC(O)C(CO)O2)cc1/C=C/Br,KOS,HEL,,0.1 µM
Nc1ncnc2c1ncn2CCOCP(=O)(O)O,TK-,Primary rabbit kidney cells,,7 µg/mL
O=c1[nH]cnc2c1ncn2CCOCP(=O)(O)O,3 strains,Primary rabbit kidney cells,cytopathic effect,>400 µg/mL
Nc1nc(NC2CC2)c2ncn(C=C3CC3CO)c2n1,,BSC-1,ELISA,15 µM
O=C(O)P(=O)(O)O,,GMK,cytopathic effect,>12.5 µg/mL
Nc1nc2c(ncn2COC(CO)CO)c(=O)[nH]1,KOS BVDU-resistant,HEL,cytopathic effect,0.76 µg/mL
COC(=O)[C@H](C)NP(=O)(OC[C@H]1C/C1=C/n1cnc2c(=O)[nH]c(N)nc21)Oc1ccccc1,,BSC-1,ELISA,>100 µM
O=c1[nH]cnc2c1ncn2C[C@@H](CO)OCP(=O)(O)O,TK-,Primary rabbit kidney cells,,>400 µg/mL
Cc1cc(O)cc(O)c1CC(=O)O,KOS,E6SM,cytopathic effect,40 µg/mL
O=c1[nH]c(=O)n([C@H]2C[C@H](O)[C@@H](CO)O2)c[c]1[Hg+].O[C@H](C[S-])[C@H](O)CS,KOS,KB,virus yield,1.204 µg/mL
OC[C@H]1O[C@H](OC[C@H]2O[C@H](O[C@]3(CO)O[C@H](CO)[C@@H](O)[C@@H]3O)[C@H](O)[C@@H](O)[C@@H]2O)[C@H](O)[C@@H](O)[C@H]1O,KOS,HeLa,cytopathic effect,>200 µg/mL
Nc1nc2c(ncn2COC(CO)CO)c(=O)[nH]1,KOS,HEL,,0.02 µM
Nc1nc2c(ncn2COCCO)c(=O)[nH]1,MAYO 1814,BSC-1,cytopathic effect,0.15 µg/mL
C=CCCc1cn([C@@H]2O[C@H](CO)[C@@H](O)[C@@H]2O)c(=O)[nH]c1=O,VR-3,HELF,cytopathic effect,32 µg/mL
Nc1ncnc2c1ncn2C[C@H](O)CO,KOS,PRK,cytopathic effect,>100 µg/mL
Cc1cn([C@@H]2O[C@H](CO)[C@@H](O)[C@@H]2O)c(=S)[nH]c1=O,KOS,RPMI8226,plaque count,9.9 µM
CC(=O)O[C@H]1C[C@@]2(C)[C@@H](C[C@@H](O)[C@H]3[C@@]4(C)CC[C@@H](O)[C@@H](C)[C@@H]4CC[C@@]32C)/C1=C(\CCC=C(C)C)C(=O)O,KOS,HeLa,cytopathic effect,>200 µg/mL
NC(CS)C(=O)O.O=c1[nH]c(=O)n([C@H]2C[C@H](O)[C@@H](CO)O2)c[c]1[Hg+],KOS,KB,virus yield,0.899 µg/mL
Nc1nc(=S)n([C@H]2C[C@H](O)[C@@H](CO)O2)cc1I,KOS,RPMI8226,plaque count,22.8 µM
O=c1[nH]c(=O)n([C@H]2C[C@H](O)[C@@H](CO)O2)cc1/C=C/Br,KOS PMEDAP-resistant,HEL,cytopathic effect,0.001 µg/mL
CCCCCCCCCCCC(=O)OC[C@H](COP(=O)([O-])OCC[N+](C)(C)C)OC(=O)CCCCCCCCCCC,KOS,HeLa,cytopathic effect,>200 µg/mL
COC(=O)[C@H](C)NP(=O)(OC[C@H]1C/C1=C\n1cnc2c(=O)[nH]c(N)nc21)Oc1ccccc1,,BSC-1,ELISA,>100 µM
C1C2C3CC4C1C1C2NC3C41,,BHK-21,plaque count,>25 µg/mL
Nc1ncnc2c1ncn2CCOCP(=O)(O)O,KOS PMEDAP-resistant,HEL,cytopathic effect,103 µg/mL
Cc1cn(C[C@@H](CO)OCP(=O)(O)O)c(=O)[nH]c1=O,TK-,Primary rabbit kidney cells,,>400 µg/mL
O=c1[nH]c(=O)n([C@H]2C[C@H](O)[C@@H](CO)O2)c[c]1[Hg+].OCC[S-],KOS,KB,virus yield,0.003 µg/mL
O=c1[nH]c(=O)n([C@H]2C[C@H](O)[C@@H](COP3(=O)OCc4ccccc4O3)O2)cc1/C=C/Br,KUPKA (TK+),VERO,plaque count,0.38 µg/mL
CC(=O)N[C@H]1[C@@H](O[C@@H]2O[C@H](C[C@@H](O)[C@H]3O[C@@H](n4ccc(=O)[nH]c4=O)[C@H](O)[C@@H]3O)[C@H](O)[C@H](O)[C@H]2NC(=O)/C=C/CC(C)C)O[C@H](CO)[C@@H](O)[C@@H]1O,,Chicken fibroblasts,plaque count,<0.5 µg/mL
Nc1nc2c(ncn2CC(CO)OCP(=O)(O)O)c(=O)[nH]1,(TK-) 2 strains,Primary rabbit kidney cells,cytopathic effect,7 µg/mL
O=C1O[C@@H]2[C@@H](OC(=O)c3cc(O)c(O)c(O)c3-c3c1cc(O)c(O)c3O)[C@@H](O)O[C@@H]1COC(=O)c3cc(O)c(O)c(O)c3-c3c(O)c(O)c4oc(=O)c5c(c(O)c(O)c6oc(=O)c3c4c65)-c3c(cc(O)c(O)c3O)C(=O)O[C@@H]21,,A549,plaque count,10.25 µM
C[C@H](N)C(=O)OCP(=O)(OC[C@H]1O[C@@H](n2cnc3c(N)ccnc32)C[C@@H]1O)Oc1ccccc1,KOS,HEL,,>100 µM
COc1ccc2cc3[n+](cc2c1OC)CCc1cc2c(cc1-3)OCO2,KOS,HeLa,cytopathic effect,>200 µg/mL
Nc1ncnc2c1ncn2C[C@@H](CO)OCP(=O)(O)O,PCV-resistant/B,HEL,cytopathic effect,0.07 µg/mL
Nc1ncnc2c1ncn2CCOCP(=O)(O)O,3 strains,Primary rabbit kidney cells,cytopathic effect,7 µg/mL
Cc1cccc2c1OP(=O)(OC[C@H]1O[C@@H](n3cc(/C=C/Br)c(=O)[nH]c3=O)C[C@@H]1OC(=O)[C@H](N)CC(C)C)OC2,B2006 (TK-),VERO,plaque count,>128 µg/mL
Nc1nc2c(ncn2COC(CO)CO)c(=O)[nH]1,K1,HEF,cytopathic effect,0.1 µM
CCN1C[C@]2(COC)[C@H](O)CC(OC)[C@]34C1[C@H](CC23OC)[C@]1(OC(C)=O)[C@H]2[C@@H](OC(=O)c3ccccc3)[C@](O)(C[C@H]24)[C@@H](OC)[C@@H]1O,KOS,HeLa,cytopathic effect,>100 µg/mL
O=C(O)c1cc(O)c(O)c(O)c1,KOS,E6SM,cytopathic effect,20 µg/mL
Nc1ncnc2c1ccn2[C@@H]1O[C@H](CO)[C@@H](O)[C@H]1O,,KB,plaque count,320 µM
O=c1[nH]c(=O)n([C@H]2C[C@H](O)[C@@H](CO)O2)cc1F,TK-,MRC-5,plaque count,>385 µM
Nc1ncnc2c1ncn2C[C@H]1COP(=O)(O)CO1,TK-,Primary rabbit kidney cells,,2 µg/mL
O=c1[nH]c(=O)n([C@H]2C[C@H](O)[C@@H](CO)O2)cc1/C=C/Br,,HELA TK-,plaque count,<0.03 µM
Nc1ncnc2c1ncn2C[C@@H](CO)OCP(=O)(O)O,TK-,Primary rabbit kidney cells,,0.7 µg/mL
O=C(O)CP(=O)(O)O,ACV-resistant,HEL,cytopathic effect,10 µg/mL
Nc1ncc2c(ncn2COC(CO)CO)n1,KOS PMEDAP-resistant,HEL,cytopathic effect,1.73 µg/mL
O=c1[nH]cnc2c1ncn2CC(CO)OCP(=O)(O)O,3 strains,Primary rabbit kidney cells,cytopathic effect,>400 µg/mL
C[C@H]1C[C@@H](n2cnc3c(N)ncnc32)[C@H](O)[C@@H]1O,B2006 (TK-),E6SM,cytopathic effect,10 µg/mL
O=C(O)C[C@H]1C(=O)O[C@H]2[C@H](OC(=O)c3cc(O)c(O)c(O)c3)[C@@H](OC(=O)c3cc(O)c(O)c4c3[C@H]1[C@H](O)C(=O)O4)[C@H](OC(=O)c1cc(O)c(O)c(O)c1)O[C@@H]2COC(=O)c1cc(O)c(O)c(O)c1,,A549,plaque count,20.85 µM
COC(=O)[C@]1(O)C[C@@H]2O[C@@]1(C)n1c3ccccc3c3c4c(c5c6ccccc6n2c5c31)C(=O)NC4,K1,HEF,cytopathic effect,>25 µM
Nc1nc2c(ncn2CC(CO)OCP(=O)(O)O)c(=O)[nH]1,,Primary rabbit kidney cells,,7 µg/mL
CCOC(=O)P(=O)(O)OCCOCn1cnc2c(=O)[nH]c(N)nc21,L2/R,VERO,cytopathic effect,331 µM
Cc1c(CC(=O)O)ccc(O)c1O,B2006 (TK-),E6SM,cytopathic effect,40 µg/mL
Nc1ccn(C[C@@H](CO)OCP(=O)(O)O)c(=O)n1,PCV-resistant/B,HEL,cytopathic effect,0.36 µg/mL
O=c1[nH]c(=O)n([C@@H]2C[C@@H](O)[C@H](CO)O2)cc1/C=C/Br,,U373-MG,plaque count,1 µM
CCCCCCCCCC(=O)O[C@H]1C[C@H](n2cc(/C=C/Br)c(=O)[nH]c2=O)O[C@@H]1COP1(=O)OCc2cccc(C)c2O1,B2006 (TK-),VERO,plaque count,>128 µg/mL
Nc1nc2c(ncn2CCC(CO)CO)c(=O)[nH]1,KOS,HEL,cytopathic effect,0.02 µg/mL

For reference, 5 entries again:

compound | strain or isolate | cells | read by | result
Nc1nc2c(ncn2COC(CO)CO)c(=O)[nH]1 | KOS BVDU-resistant | HEL | cytopathic effect | 0.76 µg/mL
Nc1nc2c(ncn2CCC(CO)CO)c(=O)[nH]1 | KOS | HEL | cytopathic effect | 0.02 µg/mL
O=C(O)Cc1ccc(O)c(O)c1 | KOS | E6SM | cytopathic effect | 15 µg/mL
Nc1ncnc2c1ncn2CCOCP(=O)(O)O | 3 strains | Primary rabbit kidney cells | cytopathic effect | 7 µg/mL
Cc1c(CC(=O)O)ccc(O)c1O | B2006 (TK-) | E6SM | cytopathic effect | 40 µg/mL